Primary screen of a compound library

Results are given as percent effect.
The record does not define 0% and 100%; most values in the screen are far below 50% and negative numbers occur (in some assays of this library far below -100).
Many other results are left out here, so strong results are more common than in the screen.
A dash means the value is not listed here; it may have been measured.

Mtb glucose medium: 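Growth of Mycobacterium tuberculosis over 3 days (7H9 medium with glucose and tyloxapol); the read-out is not stated. Tested at 500 µM. Higher reads as more growth inhibition (inferred: compounds with an IC50 in retests scored well above the rest). Size under these conditions: about 18,000 compounds, about 1,400 of them at 50% or above in at least one test.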
Mtb cholesterol medium: 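Phenotypic screen: M. tuberculosis growth, cholesterol and DPPC medium, 4 days; the read-out is not stated. Tested at 500 µM. The record gives no direction; compounds that gave an IC50 in retests scored well above the rest, so higher reads as more growth inhibition. Of about 18,000 compounds tested this way, about 900 (5%) reached 50% or more in at least one test.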

| # | Compound | Mtb glucose medium | Mtb cholesterol medium |
|---|---|---|---|
| 1 | `Cc1ncsc1C(=O)Nc1ccc(N(C)C)cn1` | -144.8 | - |
| 2 | `CC(=O)c1cnc2ccsc2c1` | -11.36 | - |
| 3 | `O=C(NCCNS(=O)(=O)Cc1ccccc1)C1CCC1` | 18.09 | - |
| 4 | `Cc1cc(C(=O)N2CCN(C)C(=O)C2(C)C)c(C)o1` | - | -5.642 |
| 5 | `CCN1CCC(CC(=O)N(C)Cc2noc(C)n2)CC1` | -10.81 | - |
| 6 | `CCNC(C)(C)C(=O)N(C)Cc1ccc(OC)c(F)c1` | -2.571 | -17.13 |
| 7 | `NCC(O)C1CCOCC1` (stereo not given) | - | -10.17 |
| 8 | `CC(=O)N1CCC[C@H]1C(=O)NCCc1csc(C)n1` | 55.92 | 52.3 |
| 9 | `CN(CC(=O)NCCC#N)Cc1ccccc1Cl` | - | 0.8093 |
| 10 | `Cc1cc(F)ccc1C(=O)Nc1cccc(CO)n1` | -6.475 | -11.53 |
| 11 | `CC1(CNC(=O)c2ccc3c(c2)OCCO3)CCOC1` (stereo not given) | - | -4.456 |
| 12 | `CCN(C)C(=O)c1ccc(-n2cncn2)cc1` | 6.876 | - |
| 13 | `NCC(=O)N1CCC(Cc2ccccc2)CC1` | 11.22 | 3.942 |
| 14 | `CN(CCC(C)(C)O)C(=O)c1ccc(N)nc1` | 7.627 | - |
| 15 | `OCCOCCN1CCC(=Cc2ccccc2)CC1` | 65.48 | 34.52 |
| 16 | `O=C(NC1CC1)c1cc(O)nc2ccc(F)cc12` | - | -27.53 |
| 17 | `OC1(CNCC2(O)CCCC2)CCCC1` | -1.265 | - |
| 18 | `CN1Cc2cccn2CC1CNC(=O)c1cccn1C` (stereo not given) | - | -0.9721 |
| 19 | `CCNC(=O)Cn1ccc(N)n1` | 9.625 | - |
| 20 | `NC(=O)N1CCCC(Nc2nc(C3CC3)ns2)C1` (stereo not given) | 11.09 | - |
| 21 | `COC(=O)NC(C)C(=O)NCCc1nccn1C` (stereo not given) | -2.106 | - |
| 22 | `Cc1cnc(C(=O)NCCCc2ccccn2)cn1` | 57.77 | - |
| 23 | `CC(C)(C)c1n[nH]cc1CNCCCNS(C)(=O)=O` | 36.66 | - |
| 24 | `NC(CO)c1ccc(Cl)cc1C(F)(F)F` (stereo not given) | - | 15.5 |
| 25 | `CCC(C)NC(=O)N(CCN(C)C)CCN(C)C` (stereo not given) | -2.846 | - |
| 26 | `CC(=O)N[C@H]1CCN(CCn2c(=O)cc(C)[nH]c2=O)C1` | - | -5.335 |
| 27 | `COCc1ccccc1CS(N)(=O)=O` | 1.35 | - |
| 28 | `Cc1cc(C(=O)N2CCC(F)(F)CC2)cc(C)n1` | -1.645 | - |
| 29 | `CC(C)n1cnnc1CC1CCCNC1` (stereo not given) | -7.577 | - |
| 30 | `CS(=O)(=O)N1CCN(c2ccccc2F)CC1` | 8.478 | - |
| 31 | `O=C1[C@H]2CNC[C@H]2C(=O)N1Cc1ccccc1` | 8.401 | -3.353 |
| 32 | `CNC(C)(C)CNC(=O)Nc1cc(OC)ccc1OC` | 12.67 | - |
| 33 | `CCCOCC(=O)Nc1ncccc1NC(C)=O` | 38.18 | - |
| 34 | `N#Cc1ccccc1CN1CCC(CO)CC1` | 27.21 | - |
| 35 | `NC1(CO)CCc2ccccc21` (stereo not given) | 13.74 | - |
| 36 | `CSc1ccc(CN(C)CCC(N)=O)cc1` | 8.112 | - |
| 37 | `CC(C)(C)OC(=O)N1CCOCC(CO)C1` (stereo not given) | 3.455 | - |
| 38 | `COCC(NC(=O)CNc1ccccc1)C(C)C` (stereo not given) | 26.53 | - |
| 39 | `CC(C)NC(=O)NC(=O)C(C)N1CCC(O)CC1` (stereo not given) | - | -0.6748 |
| 40 | `CCC(C(=O)NCc1ccc(F)c(F)c1)n1cccn1` (stereo not given) | 47.16 | - |
| 41 | `CN1CC(CO)C2(CCNCC2)C1` (stereo not given) | -1.124 | - |
| 42 | `CN(C)CCNC(=O)c1cccs1` | 9.697 | - |
| 43 | `CC(C)CC(O)C(=O)N1CCN(c2cccnc2)CC1` (stereo not given) | 52.96 | 32.45 |
| 44 | `CS(=O)(=O)N(c1ccc(OCCN)cc1)S(C)(=O)=O` | - | 4.704 |

Repeated from the top, 4 entries:

| Compound | Mtb glucose medium | Mtb cholesterol medium |
|---|---|---|
| `Cc1ncsc1C(=O)Nc1ccc(N(C)C)cn1` | -144.8 | - |
| `CC(=O)c1cnc2ccsc2c1` | -11.36 | - |
| `O=C(NCCNS(=O)(=O)Cc1ccccc1)C1CCC1` | 18.09 | - |
| `Cc1cc(C(=O)N2CCN(C)C(=O)C2(C)C)c(C)o1` | - | -5.642 |

Source: ChEMBL document CHEMBL3988442, “University of Dundee, Small-Polar-MMV Screening Library” (2021).